In PubChem BioAssay AID651724 (National Center for Advancing Translational Sciences (NCATS), 2012):
This is a selection; strong and weak results do not stand in their true shares. Active and inactive are the calls of the source. No stated cut-off is given here; in the data, active means activity change below about -65%; inconclusive means mostly about -30% to -63%; inactive means weaker than that.

Each compound was assayed on CtBP / adenovirus E1A interaction (AlphaScreen) (assay: qHTS Assay for Inhibitors of the CtBP/E1A Interaction). Details: AlphaScreen GST-E1A/His-CtBP binding, 1536-well; hits give low values.
Procedure, shortened: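 Protein mix (5X: 125 nM each GST-E1A, His-CtBP) was incubated with pinned compound 2 h at 37 deg C in dark, in 50 mM Tris pH 8.0 buffer with 300 mM NaCl. Glutathione donor and nickel acceptor beads followed; AlphaScreen signal read after 1 h.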
On the % scale 0 is the no-effect control and ±100 the full control effect.

| SMILES | activity change |
| --- | --- |
| O=C(NC(Sc1ccncn1)C(Cl)(Cl)Cl)c1ccccc1 (configuration not stated) | inactive: 12.6% |
| Oc1ccccc1CNc1ccccn1 | inactive: 6.36% |
| Cc1ccc(OP(=O)(Nc2nccs2)Oc2ccc(C)cc2)cc1 | inactive: 2.1% |
| COc1ccc(OP(C)(=O)Nc2ccccn2)cc1 (configuration not stated) | inactive: 38.4% |
| COc1ccccc1OP(=O)(Nc1ccc(C)cn1)Oc1ccccc1OC | inactive: -17.2% |
| Clc1ccc(Cl)c(NC2=NCC(CBr)S2)c1 (configuration not stated) | inactive: 1.75% |
| CN(C)CCOC(=O)C(O)(c1ccccc1)C1CCCC1 (configuration not stated) | inactive: 11.2% |
| CN1CCCC(OC(=O)C(c2ccccc2)c2ccccc2)C1 (configuration not stated) | inactive: -4.5% |
| Cc1ccc(N/C(=N/P(=O)(N2CCOCC2)N2CCOCC2)N2CCOCC2)cc1 | inactive: 12.2% |
| COc1ccccc1OP(C)(=O)Nc1ccc(Br)cc1 (configuration not stated) | inactive: 8.48% |
| CN(C(=O)Cc1ccc(Cl)c(Cl)c1)[C@H]1CCCC[C@H]1N1CCCC1 | inactive: -4.53% |
| CC(=O)Nc1ccc(Oc2c([N+](=O)[O-])cc([N+](=O)[O-])cc2[N+](=O)[O-])cc1 | inactive: -1.48% |
| CC(=O)Nc1ccc([As](=O)(O)O)c(O)c1 | inactive: 10.8% |
| COC(=O)C1(C)COP(=O)(NCc2ccccc2)OC1 (configuration not stated) | inactive: 1.78% |
| N#C/C(=C\c1ccc(N(CCBr)CCBr)cc1)C(N)=O | inactive: 16.7% |
| CC(=O)c1ccc(N2CC2c2ccncc2)cc1 (configuration not stated) | inactive: 9.15% |
| C[C@@H]1C=CCP(=O)(Oc2ccccc2)O1 (some centres not stated) | inactive: 3.41% |
| C[C@H]1OP(=O)(Oc2ccccc2)C[C@@H]2O[C@@H]21 (some centres not stated) | inactive: 3.73% |
| Cc1ccccc1CN(C)C(=O)COC(=O)C(O)(c1ccccc1)c1ccccc1 | inactive: -14.6% |
| O=C(OCCN1CCN(CCOCc2ccccc2)CC1)C(O)(c1ccccc1)c1ccccc1 | inactive: -6.39% |
| CP(=O)(Nc1ccccc1F)Oc1ccccc1 (configuration not stated) | inactive: 40.6% |
| CCc1cc(O)c([N+](=O)[O-])c(C)c1[N+](=O)[O-] | inactive: 6.35% |
| CC(C)c1ccc(OP(C)(=O)Nc2ccc(SC(F)(F)F)cc2)cc1 (configuration not stated) | inactive: 1.97% |

| SMILES | activity change |
| --- | --- |
| CC(C)(C)C(=O)NC(Sc1ccccc1)C(Cl)(Cl)Cl (configuration not stated) | inactive: -0.628% |
| O=P1(Nc2nc3ccc(Cl)cc3s2)COc2ccccc2O1 (configuration not stated) | inactive: -5.48% |
| CP(=O)(Nc1ccccc1)Oc1ccc(F)cc1 (configuration not stated) | inactive: 3.52% |
| CN(C)C(=O)Oc1noc2ccccc12 | inactive: 7.87% |
| CCCCCOc1ccc(NP(C)(=O)Oc2ccc(Cl)cc2Cl)cc1 (configuration not stated) | inactive: -5.84% |
| O=c1c2cc([N+](=O)[O-])ccc2[nH]c2c([N+](=O)[O-])cc([N+](=O)[O-])cc12 | inactive: -0.715% |
| Cc1ccccc1OP(=O)(Nc1ccccn1)Oc1ccccc1C | inactive: -0.623% |
| CC(NC(=O)COC(=O)C(O)(c1ccccc1)c1ccccc1)c1ccccc1 (configuration not stated) | inactive: 11.9% |
| CC(=O)NC(SC(=S)N(CC(C)C)CC(C)C)C(Cl)(Cl)Cl (configuration not stated) | inactive: 5.95% |
| Cc1c([N+](=O)[O-])cc([N+](=O)[O-])c(Br)c1[N+](=O)[O-] | inactive: 3.73% |
| COC(=O)c1cc2c(s1)N=C(c1ccccc1)N(C)P2(=O)N1CCOCC1 (configuration not stated) | inactive: 3.99% |
| CCN(CC)CCCOC(=O)C(O)(c1ccccc1)C1CCCCC1 (configuration not stated) | inactive: 1.67% |
| CCC(=O)N1C2C3N(C(=O)CC)C1C1N(C(=O)CC)C(C(N1C(=O)CC)N3C(=O)CC)N2C(=O)CC | inactive: 0.194% |
| O=C(OC1CN2CCC1CC2)c1ccccc1 (configuration not stated) | inactive: -8.87% |
| CCOC(=O)c1ccc(NP(C)(=O)Oc2ccc(F)cc2)cc1 (configuration not stated) | inactive: 10.6% |
| O=P1(N(CCCl)CCCl)OCCC2CCCCN21 (configuration not stated) | inactive: -1.44% |
| COc1ccc(OP(C)(=O)Nc2ccc(SC(F)(F)F)cc2)cc1 (configuration not stated) | inactive: 1.52% |
| CCNC(=S)/N=C(\N)N[N+](=O)[O-] | inactive: 14.2% |
| Cc1ccc(NP(=O)(Oc2cccc(C)c2)Oc2cccc(C)c2)nc1 | inactive: 6.86% |
| Nc1ccc([As](=O)(O)c2ccc([N+](=O)[O-])cc2)cc1 | inactive: 4% |
| C(Cc1nn[nH]n1)Cc1nn[nH]n1 | inactive: 3.39% |
| Cc1c(C(c2ccc3c(c2)OCO3)c2c(C)n(C)n(-c3ccccc3)c2=O)c(=O)n(-c2ccccc2)n1C.O=[N+]([O-])c1cc([N+](=O)[O-])c(O)c([N+](=O)[O-])c1 | inactive: 9.48% |
| O=C(OC1CN2CCC1CC2)c1cccc(Cl)c1 (configuration not stated) | inactive: 3.91% |

| SMILES | activity change |
| --- | --- |
| CC(=O)NC(SC(=S)N(C)C)C(Cl)(Cl)Cl (configuration not stated) | inactive: -9.3% |
| O=[N+]([O-])c1ccc(OP2(=O)COCCO2)cc1 (configuration not stated) | inactive: -1.7% |
| O=[N+]([O-])c1ncn(CCn2cnc([N+](=O)[O-])n2)n1 | inactive: 4.53% |
| Cc1cc(-c2cccc3ccccc23)c(C)cn1.O=[N+]([O-])c1cc([N+](=O)[O-])c(O)c([N+](=O)[O-])c1 | inactive: 3.39% |
| O=[As](O)(c1ccccc1)c1ccc(O)cc1 | inactive: 16.5% |
| C[C@H]1OP(=O)(Oc2ccccc2)[C@H](O)[C@H](O)[C@H]1N=[N+]=[N-] (some centres not stated) | inactive: 2.53% |
| CN(C)CCOC(=O)C(O)(c1ccccc1)C1CCCCC1 (configuration not stated) | inactive: -3.17% |
| O=P(Nc1nc2ccccc2s1)(c1ccccc1)c1ccccc1 | inactive: 0.121% |
| COc1ccc(NP(C)(=O)Oc2ccccc2OC)cc1 (configuration not stated) | inactive: 0.838% |
| COc1ccc(N)c([N+](=O)[O-])c1[N+](=O)[O-] | inactive: -5.21% |
| COc1ccc(OP(C)(=O)Nc2cccc(Br)c2)cc1 (configuration not stated) | inactive: -0.822% |
| O=P(Nc1ccccn1)(c1ccc(Br)cc1)c1ccc(Br)cc1 | inactive: 0% |
| CN(C)C1(CNC(=O)c2ccc(Cl)c(S(N)(=O)=O)c2)CCCCC1 | inactive: 4.76% |
| Cc1ccccc1NP(C)(=O)Nc1ccccc1C | inactive: 22.1% |
| O=[N+]([O-])c1cc([N+](=O)[O-])c(C(F)(F)F)c([N+](=O)[O-])c1O | inactive: 6.06% |
| CP(=O)(Nc1ccc2c(c1)OCCO2)Oc1ccccc1 (configuration not stated) | inactive: -2.64% |
| CCOP(C)(=S)SCC(=O)NC(C)(CC)C(=O)O (configuration not stated) | inactive: 7.73% |
| c1nnnn1CCn1cnnn1 | inactive: 0.77% |
| CP(=O)(Nc1ccc(SC(F)(F)F)cc1)Oc1ccc(F)cc1 (configuration not stated) | inactive: 10.1% |
| CC(C)C(=O)NC(Sc1ccccc1)C(Cl)(Cl)Cl (configuration not stated) | inactive: 1.01% |
| O=P(Nc1nccs1)(c1ccccc1)c1ccccc1 | inactive: -0.658% |
